Measured values from several laboratories, pooled; numbers as filed in NIAID ChemDB.

Common to all: tests in culture; species: Mycobacterium tuberculosis

Blank or dashed fields: not listed here. ECn: concentration that inhibits the pathogen or its effect by n%. Neighbouring rows are from separate reports. MIC50, MIC90 and the like: level of inhibition, or share of isolates inhibited. MIC bound comes from a single tested concentration. Percent inhibition refers to the dose given; in toxicity tests it is the harm to the cells. Two numbers with a dash give a range or band.

SMILES	setting	cell line	strain	read by	dose	read-out	result
CC(=O)OC[C@@]12CC[C@]3(C(=O)O)[C@@H](C(C)C)CC[C@H]3[C@@H]1C1C=C(C)C(C2)OO1			H37Rv	resazurin		MIC	100 µg/mL
O=C(Oc1ccc(Cl)cc1C(=O)Nc1ccc(Cl)c(Cl)c1)c1ccccc1	21 d		Praha 1	broth dilution		MIC	0.5 µM
CC(=O)OC1SC(C)(C)n2c1nc1ccccc1c2=O			H37Rv		6.25 µg/mL	inhibition	4%
CC1(C)[C@@H]2CC[C@@]1(C)[C@H](NC(=O)/C=C/C=C/c1ccc3c(c1)OCO3)C2			H37Rv	resazurin		MIC	0.35 µM
NNC(=O)c1ccncc1	21 d		H37Rv	broth dilution / absorbance		MIC100	1 µM
C[C@@H]1[C@@H](C)C(C)(C)[C@@H](C)C[C@H]1NC(=O)/C=C/C=C/c1ccc2c(c1)OCO2			H37Rv	resazurin		MIC	1.14 µM
CCCCOC(=O)c1ccc(NC(=O)C2(c3cccs3)CCOCC2)cc1			CDC1551	turbidity		EC50	121 µM
CC1(C)[C@@H]2CC[C@@]1(C)[C@@H](NC(=O)/C=C/C=C/c1ccc3c(c1)OCO3)C2			H37Rv	resazurin		MIC	0.35 µM
CCOC(=O)c1cc(-c2ccc(Cl)cc2)n(CCC(=O)N/N=C/c2ccccc2O)c1C			H37Rv			MIC	>6.25 µg/mL
CCOC(=O)c1c(N)sc2sc(-c3ccc(C)cc3)cc12	multidrug-resistant		MDR-TB			MIC	4.9 µM
CCn1c(SCC(=O)N/N=C/c2cc(O)ccc2Br)nnc1-c1ccco1			H37Rv			EC50	>6.25 µg/mL
Cc1cn([C@H]2C[C@@H]3[C@@H](COC(C)(C)N3O)O2)c(=O)[nH]c1=O			H37Rv	BACTEC		MIC bound	>12.5 µg/mL
CCn1c(SCC(=O)N/N=C/c2cccc(OC)c2)nnc1-c1ccco1			H37Rv		6.25 µg/mL	inhibition	23%
O=C(N/N=C/c1ccccc1[N+](=O)[O-])c1ccncc1			ATTC 27294	resazurin		MIC	5 µg/mL
CN(NC(=O)C(=O)NCc1ccco1)C(=O)Nc1ccccc1			H37Rv	BACTEC	12.5 µg/mL	inhibition	0%
CCCCCCCCCCNC(=O)Nc1ccc(S(=O)(=O)Nc2cc(C)on2)cc1	21 d		H37Rv	broth dilution / absorbance		MIC100	125 µM
CC(C)[C@H]1CC[C@H]2[C@@H]3C=C[C@](C)(O)[C@H](O)C[C@]3(C)CC[C@]12C(=O)O			H37Rv	resazurin		MIC	100 µg/mL
CO[C@H]1/C=C/O[C@@]2(C)Oc3c(C)c(O)c4c(O)c(cc(O)c4c3C2=O)NC(=O)/C(C)=C\C=C\[C@H](C)[C@H](O)[C@@H](C)[C@@H](O)[C@@H](C)[C@H](OC(C)=O)[C@@H]1C			BCG			MIC	0.005 µg/mL
CCCCCCCOc1cccc(NC(=O)OCCN(C)C)c1			My 331/88			MIC	8 µM
COC(=O)C1(C(=O)OC)OC(c2ccccc2)C2C(=O)N(C)C(=O)C21			H37Rv	BACTEC		MIC bound	>12.5 µg/mL
Cc1cc[n+]2c(c1)[nH]c(=O)c1cccnc12			H37Rv			MIC	>20 µg/mL
Fc1cccc(C2SCc3nc4ccccc4n32)c1			H37Rv	resazurin		MIC bound	>6.25 µg/mL
O=C(NNc1ccc([N+](=O)[O-])cc1)c1cccnc1Cl			H37Rv			MIC	>20 µg/mL
C=C1C(=O)[C@]23[C@H](O)[C@H]1CC[C@H]2[C@@]1(C)[C@H](C[C@H]3OC(C)=O)C(C)(C)CC[C@H]1OC(C)=O			H37Rv	resazurin / absorbance		MIC	6.25–12.5 µg/mL
C=C[C@H](OC(C)=O)c1ccc(OC(C)=O)cc1			H37Ra			MIC	0.1 µg/mL
CC(CN1CCN(CCOCCO)CC1)CN1c2ccccc2Sc2ccc(Cl)cc21		VERO	H37Rv	BACTEC		MIC	12.5 µg/mL
O=C(Oc1cc(Cl)ccc1C(=O)Nc1ccc(C(F)(F)F)cc1)c1ccccc1	21 d		331/88 (H37Rv)	broth dilution		MIC	2 µM
N#Cc1ccc(NC(=O)c2cccnc2Cl)cc1			H37Rv			MIC	>20 µg/mL
O=C(Oc1ccc(Br)cc1C(=O)Nc1ccc(C(F)(F)F)cc1)c1ccccc1	14 d		Praha 1	broth dilution		MIC	1 µM
CN[C@@H]1[C@H](O[C@H]2[C@H](O[C@H]3[C@H](O)[C@@H](O)[C@H](N=C(N)N)[C@@H](O)[C@@H]3N=C(N)N)O[C@@H](C)[C@]2(O)C=O)O[C@@H](CO)[C@H](O)[C@H]1O			3694/83 (streptomycin-resistant)			MIC	25–50 µg/mL
CCOC(=O)c1[nH]c(C)c(/C=N\NC(=O)c2ccncc2)c1C			H37Rv			MIC	<0.1 µg/mL
CCCCOc1cccc(NC(=O)OCCN2CCOCC2)c1			My 331/88			MIC	250 µM
CO[C@H]1/C=C/O[C@@]2(C)Oc3c(C)c(O)c4c(O)c(c(/C=N/N5CCN(C)CC5)c(O)c4c3C2=O)NC(=O)/C(C)=C\C=C\[C@H](C)[C@H](O)[C@@H](C)[C@@H](O)[C@@H](C)[C@H](OC(C)=O)[C@@H]1C			H37Rv			MIC	>20 µg/mL
CC(=O)n1cc(/C=N\NC(=O)c2ccncc2)c2ccccc21			H37Rv		6.25 µg/mL	inhibition	98%
CC[C@@H](CO)NCCN[C@@H](CC)CO			H37Rv	resazurin		MIC	7.22 µM
C=C1C[C@@]23CC[C@H]4[C@@](C)(CCC[C@]4(C)C(=O)O)[C@@H]2[C@@H](OC(C)=O)C[C@@H]1C3			H37Ra	resazurin / absorbance		MIC	25–50 µg/mL
Fc1ccc(CN2COc3c(cc(Cl)c4cccnc34)C2)cc1			H37Rv		6.25 µg/mL	inhibition	59%
NC[C@@H]1O[C@H](O[C@H]2[C@@H](O)[C@H](O[C@@H]3[C@@H](O)[C@H](N)C[C@H](N)[C@H]3O[C@H]3O[C@H](CO)[C@@H](O)C[C@H]3N)O[C@@H]2CO)[C@H](N)[C@@H](O)[C@@H]1O[C@H]1O[C@H](CO)[C@@H](O)[C@H](O)[C@@H]1O			Aoyama B			EC50	25–50 µg/mL
CNC(=O)Nc1ccc(S(=O)(=O)Nc2cc(C)on2)cc1	14 d		H37Rv	broth dilution / absorbance		MIC100	16 µM
CCOC(=O)c1c(N)sc2sc(-c3ccccc3)cc12			H37Rv			MIC	20.6 µM
CCOC(=O)c1cc(=O)c2cc(-c3ccccc3)ccc2[nH]1			H37Rv	BACTEC		MIC bound	>12.5 µg/mL
CCOC(=O)c1c(N)sc2sc(-c3ccc(C(C)C)cc3)cc12	multidrug-resistant		MDR-TB			MIC	2.3 µM
O=C(Oc1cc(Cl)ccc1C(=O)Nc1ccc(Br)cc1)c1ccccc1	14 d		331/88 (H37Rv)	broth dilution		MIC	2 µM
CCc1ccc(NC(=O)C2(c3cccs3)CCOCC2)cc1			CDC1551	turbidity		EC50	10 µM
C=C1C(=O)[C@@]23[C@H](O)C[C@@H]4C(C)(C)CCC[C@@]4(C)[C@@H]2CC[C@@H]1[C@H]3O			H37Ra	resazurin / absorbance		MIC	3.125–6.25 µg/mL
NC(=O)N=Nc1c2c3ccccc3[nH]c(N3CCC(O)CC3)c-2c2ccccc12			H37Rv	resazurin / fluorescence		MIC90	>20 µg/mL
N#Cc1c(N)sc2sc(-c3ccc(Cl)cc3Cl)cc12			H37Rv			MIC	30.4 µM
O=C(/C=C/C=C/c1ccc2c(c1)OCO2)NC1CCCCC1			H37Rv	resazurin		MIC	1.67 µM
CC1=CCC2=C3CC[C@H](C(C)C)[C@@]3(C)CC(=O)[C@@]2(C)CC1			H37Rv	resazurin		MIC	100 µg/mL
C=C1C(=O)[C@]23C[C@H]1C[C@H](OC(C)=O)[C@H]2[C@]1(C)CCCC(C)(C)[C@H]1C[C@H]3O			H37Ra	resazurin / absorbance		MIC	6.25–12.5 µg/mL
CCNC(=O)Nc1ccc(S(=O)(=O)Nc2cc(C)on2)cc1	14 d		H37Rv	broth dilution / absorbance		MIC100	62.5 µM
O=C(Oc1ccc(Cl)cc1C(=O)Nc1ccc(C(F)(F)F)cc1)c1ccccc1	14 d		9449/2006	broth dilution		MIC	0.5 µM
O=C(NCCc1ccc(Cl)cc1)C1(c2cccs2)CCOCC1			CDC1551	turbidity		MIC99	19.3 µM
CC(=O)c1c(O)c(C)c(O)c2c1OC1=CC(=O)c3c(C)noc3C12C			H37Rv	BACTEC	12.5 µg/mL	inhibition	48%
CC(C)[C@H]1CC[C@H]2[C@@H]3C=C[C@](C)(O)CC[C@]3(C)CC[C@]12C(=O)O			H37Rv	resazurin		MIC	100 µg/mL
CC1(C)C(=O)CC[C@]2(C)[C@H]3CC[C@@]4(C)[C@H](c5ccoc5)OC(=O)[C@H]5O[C@]54[C@]3(C)[C@H](O)C[C@@H]12			H37Rv	BACTEC	12.5 µg/mL	inhibition	27%
CC(=O)OC[C@@]1(C)CCC[C@]2(C)[C@@H]1C[C@@H](O)[C@@]13C[C@@H](CC[C@@H]21)[C@@H](C)C3=O			H37Rv	resazurin / absorbance		MIC	12.5–25 µg/mL
C=C1C(=O)OC2[C@@H]1[C@@H](OC(=O)/C(C)=C/C)C[C@@]1(CO1)[C@H]1[C@@H](OC(C)=O)C=C(C)[C@@]21O			H37Rv	BACTEC		MIC bound	>12.8 µg/mL
CCCCCCCCCOc1ccccc1NC(=O)OCCN1CCOCC1			My 331/88			MIC	32 µM
CCn1c(SCC(=O)NN)nnc1-c1ccco1			H37Rv			EC50	>6.25 µg/mL
CCCCCOc1cccc(NC(=O)OCC[NH+]2CCCC2)c1			My 331/88			MIC	62.5 µM
C=[N+]([O-])c1ccc(NC(=O)C2(c3cccs3)CCOCC2)cc1			CDC1551	turbidity		EC50	32 µM
C=C1C[C@]23C[C@H]1CC[C@H]2[C@]1(C)CCC[C@](C)(COC(C)=O)[C@H]1C[C@H]3O			H37Ra	resazurin / absorbance		MIC	25–50 µg/mL
O=C(N/N=C/c1cn(-c2cccc(Cl)c2)nn1)c1ccncc1			H37Rv	resazurin		MIC	0.62 µg/mL
Cc1ccc(NC(=O)Nc2ccccc2F)cc1Cl			H37Rv	BACTEC		MIC bound	>12.5 µg/mL
N#Cc1c(N)sc2sc(-c3ccc(Cl)cc3)cc12			H37Rv			MIC	43 µM
COC(=O)CNC(=O)c1c2oc3c(C(=O)NCC(=O)OC)cccc3nc-2cc(N)c1=O			H37Rv	BACTEC	12.5 µg/mL	inhibition	-20%
Cc1cc(NS(=O)(=O)c2ccc(NC(=O)N3CCC3)cc2)no1	21 d		H37Rv	broth dilution / absorbance		MIC100	4 µM
CNNC(=O)C(=O)n1ccnc1			H37Rv	BACTEC	12.5 µg/mL	inhibition	87%
C=C1C(=O)[C@]23C[C@H]1CC[C@H]2[C@]1(C)CCCC(C)(CO)[C@H]1C[C@H]3O			H37Ra	resazurin / absorbance		MIC	1.56–3.125 µg/mL
CCOC(=O)c1cc(-c2ccc(Cl)cc2)n(CCC(=O)N/N=C/c2[nH]c(C)c(C(C)=O)c2C)c1C			H37Rv			MIC	>6.25 µg/mL
Cc1cc(N=Nc2ccc(NC(=O)c3ccc(NC(=O)c4ccccc4)cc3)c3ccc(S(=O)(=O)O)cc23)ccc1N=Nc1ccc2c(O)cc(S(=O)(=O)O)cc2c1			H37Rv	BACTEC	12.5 µg/mL	inhibition	18%
CC(C)[C@H]1CC[C@H]2[C@@H]3C=CC4(C)CC[C@@]3(CC[C@]12C(=O)O)CO4			H37Rv	resazurin		MIC	100 µg/mL
CCN(CCO)CCCC(C)Nc1ccnc2cc(Cl)ccc12			H37Rv	resazurin	6.25 µg/mL	inhibition	-11%
O=C(Nc1ccccc1[N+](=O)[O-])c1cccnc1Cl			H37Rv			MIC	>20 µg/mL
Nc1ncnc2c1ncn2C1OC(C(O)CO)C(O)C1N			H37Rv	BACTEC		MIC bound	>12.5 µg/mL
CCn1c(SCC(=O)N/N=C/c2cccc([N+](=O)[O-])c2)nnc1-c1ccco1			H37Rv			EC50	>6.25 µg/mL
CC1=C(/C=C/C(C)=C/C=C/C(C)=C/C=N/NC(=O)c2cccnc2)C(C)(C)CCC1			H37Rv	BACTEC		MIC bound	>12.5 µg/mL
CC(=O)Nc1cccc(NC(=O)C2(c3cccs3)CCOCC2)c1			CDC1551	turbidity		EC50	200 µM
Cc1nc2ccc(NCCN(C)C)c3c(=O)c4ccccc4n1c23		VERO	H37Rv	BACTEC		MIC	3.13 µg/mL
Cc1cc(NS(=O)(=O)c2ccc(NC(=O)Nc3ccc(S(=O)(=O)Nc4cc(C)on4)cc3)cc2)no1	21 d		H37Rv	broth dilution / absorbance		MIC100	2 µM
CCC(C)C(=O)OC1CCC=C2C=CC(C)C(CCC3CC(O)CC(=O)O3)C21			H37Rv	BACTEC	12.5 µg/mL	inhibition	14%
O=C(NNc1ccccc1[N+](=O)[O-])c1cccnc1Cl			H37Rv			MIC	>20 µg/mL